PubChem BioAssay AID1259414, Drosophila RNAi Screening Center | 2018
In all, the deposit lists about 24,000 reagents; below is an unselected part of those with a known target gene and a result. Over the whole deposit, about 1,210 (5%) got an active call. 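Inactive calls also include excluded dsRNAs with several or no targets, genes unexpressed in JW18, and well A1, regardless of score.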

- Test: 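Genome-wide screen for host control of endosymbiont load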 (primary screen)
- Cells: Drosophila JW18 cells infected with Wolbachia
- Reagents: long dsRNA against Drosophila genes, 0.25 µg dsRNA per well of a 384-well plate
- Timing: 5 days
- Conditions: cells persistently infected with Wolbachia before knock-down; no added drug
- Measurement: 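Automated imaging of bacterial rRNA staining divided by host cell count, reported as plate-normalised robust z-score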
- Reading the numbers: Wolbachia per cell robust z: higher = more Wolbachia per host cell than the plate typical
- Rule for the call: 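Active if absolute robust z reaches 1.5 in two or more of three replicates, leaving out multi- or no-target dsRNAs, genes unexpressed in JW18 and A1 wells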

| Wolbachia per cell robust z, rep 1 | Wolbachia per cell robust z, rep 2 | Wolbachia per cell robust z, rep 3 | call | gene | dsRNA |
| --- | --- | --- | --- | --- | --- |
| 0.443 | 2.05 | -0.0731 | inactive | grh (grainy head) | DRSC05680 |
| -0.21 | -9.78 | -0.489 | inactive | grh (grainy head) | DRSC05683 |
| -0.422 | 0.562 | -0.507 | inactive | grh (grainy head) | DRSC07624 |
| 0.342 | 1.01 | -2.04 | inactive | grh (grainy head) | DRSC07625 |
| 0.0517 | 0.683 | 0.812 | inactive | grh (grainy head) | DRSC25041 |
| -3.97 | 0.136 | 0.0943 | inactive | grh (grainy head) | DRSC39163 |
| -0.135 | 0.00121 | 0.219 | inactive | CG4133 | DRSC23122 |
| 0.522 | 0.435 | 2.05 | inactive | CSN7 (COP9 signalosome subunit 7) | DRSC06807 |
| 0.756 | -0.361 | 0.335 | inactive | CSN7 (COP9 signalosome subunit 7) | DRSC06808 |
| 0.708 | -0.225 | -0.926 | inactive | CG5171 | DRSC02823 |
| -0.0312 | 0.414 | 0.104 | inactive | CG5171 | DRSC28092 |
| -2.28 | 0.913 | -0.288 | inactive | CG5171 | DRSC41586 |
| 0.331 | 0.486 | 0.727 | inactive | Acp54A1 (Accessory gland protein 54A1) | DRSC41332 |
| 0.376 | 0.78 | -0.503 | inactive | CG17666 | DRSC10276 |
| -0.747 | -1.46 | -0.974 | inactive | CG17666 | DRSC26761 |
| 1.34 | 0.236 | -0.0607 | inactive | pic (piccolo) | DRSC16639 |
| -0.223 | -0.0788 | -0.29 | inactive | CG13801 | DRSC08335 |
| 0.451 | -1.07 | 1.67 | inactive | CG14107 | DRSC10110 |
| -1.4 | -0.374 | 0.419 | inactive | CG14107 | DRSC25136 |
| 2.69 | -2.65 | 1.11 | inactive | CG34323 | DRSC38796 |
| -1.35 | -0.0955 | -0.531 | inactive | Pop5 (POP5 ribonuclease P/MRP subunit) | DRSC10074 |
| 0.895 | 0.914 | -0.791 | inactive | Usp2 (Ubiquitin specific protease 2) | DRSC20590 |
| 1.22 | -0.461 | 0.883 | inactive | Usp2 (Ubiquitin specific protease 2) | DRSC20632 |
| 0.121 | -0.136 | 0.616 | inactive | Usp2 (Ubiquitin specific protease 2) | DRSC20633 |
| 0.508 | 0.543 | 0.729 | inactive | Usp2 (Ubiquitin specific protease 2) | DRSC27066 |
| -0.496 | -0.00859 | -1.57 | inactive | CG2983 | DRSC38931 |
| -1.49 | 0.0786 | 1.08 | inactive | CG4576 | DRSC15604 |
| -0.255 | 0.289 | 0.697 | inactive | CG4576 | DRSC26364 |

An excerpt from above, reduced to “Wolbachia per cell robust z, rep 3”.
CG5171 [DRSC02823] = -0.926
CG5171 [DRSC28092] = 0.104
CG5171 [DRSC41586] = -0.288
